Anti-infective test results gathered from many reports (values: NIAID ChemDB through PubChem).

All rows: enzyme or target tests

Rows are shuffled and stem from different studies. An empty or dashed field is not shown. ICn: concentration for n% inhibition. Fold resistance: result on the changed form divided by that on wild type. Inhibition is in % at the dose shown (toxicity tests: loss of growth or viability).

structure | read by | dose | target | organism | endpoint | changes | result
Nc1nc2c(ncn2[C@H]2CC[C@@H](COP(=O)(O)OP(=O)(O)OP(=O)(O)O)O2)c(=O)[nH]1 | nucleotide incorporation / radiometric |  | Reverse transcriptase | HIV | IC50 | RT-N137Q | 0.5 µM
Cc1cccc(C)c1OCC(=O)N[C@@H](Cc1ccccc1)[C@H](O)CN1CC[C@@H](Sc2ccncc2)C[C@H]1C(=O)NC(C)(C)C | fluorescence |  | Protease | HIV | fold resistance | PR-V32I | 15.1
Cc1ccc(S(=O)(=O)n2cc(C(C(=O)O)C(=O)O)c3cc(NC(=O)c4cc(F)c(F)c(F)c4)ccc32)cc1 | strand transfer / fluorescence |  | Integrase | HIV-1 | IC50 |  | >25 µM
CC(C)[C@H](NC(=O)N(C)Cc1ccccn1)C(=O)N[C@@H](Cc1ccccc1)[C@@H](O)[C@H](O)[C@H](Cc1ccccc1)NC(=O)[C@@H](NC(=O)N(C)Cc1ccccn1)C(C)C | fluorescence | 0.001 µM | Protease | HIV-1 | inhibition |  | 45%
CC(C)=CCOc1cc(NC(=S)c2ccoc2C)ccc1Cl | nucleotide incorporation / radiometric |  | Reverse transcriptase | HIV | fold resistance | RT-N137D | 0.18
CO[P@](=O)(c1cc(C)cc(/C=C/C#N)c1)c1c(C(N)=O)[nH]c2ccc(Cl)c(F)c12 |  |  | Reverse transcriptase | HIV | IC50 | L1001/K103N | 0.43 µM
Cc1ccc(C(=O)Nc2ccc3c(c2)c(C(C(=O)O)C(=O)O)cn3S(=O)(=O)c2ccc(C)cc2)cc1 | strand transfer / fluorescence |  | Integrase | HIV-1 | IC50 | Y143R | >25 µM
c1ccc(C2SCc3nc4ccccc4n32)cc1 |  |  | Reverse transcriptase | HIV-1 | IC50 | RT-L100I | >50 µM
CC(C)[C@H](NC(=O)OCc1ccccc1)C(=O)N[C@@H](Cc1ccccc1)[C@H](O)[C@H](O)[C@H](Cc1ccccc1)NC(=O)[C@@H](NC(=O)OCc1ccccc1)C(C)C | fluorescence | 0.001 µM | Protease | HIV-1 | inhibition |  | 56%
CC1(C)OC(=O)/C(=C/C(=O)c2cn(Cc3cc(F)ccc3F)c3ccc(F)cc23)O1 | strand transfer / fluorescence |  | Integrase | HIV-1 | IC50 | G140S | 12.8 µM
CC(C)[C@H](NC(=O)OCc1ccccc1)C(=O)N[C@@H](Cc1ccccc1)[C@@H](O)[C@H](O)[C@H](Cc1ccccc1)NC(=O)[C@@H](NC(=O)OCc1ccccc1)C(C)C | fluorescence | 0.001 µM | Protease | HIV-1 | inhibition |  | 74%
Cc1cn([C@@H]2O[C@H](CO[Si](C)(C)C(C)(C)C)C3(OS(=O)(=O)C=C3N)[C@H]2O[Si](C)(C)C(C)(C)C)c(=O)n(C)c1=O | nucleotide incorporation / radiometric |  | Reverse transcriptase | HIV | fold resistance | RT-N137H | 0.63
Cc1ccc(S(=O)(=O)n2cc(C(C(=O)O)C(=O)O)c3cc(NC(=O)c4cccc(C)c4O)ccc32)cc1 | strand transfer / fluorescence |  | Integrase | HIV-1 | fold resistance | Y143R | 1
CC(C)(C)OC(=O)N[C@@H](Cc1ccccc1)[C@H](O)[C@H](O)[C@H](Cc1ccccc1)NC(=O)OC(C)(C)C | fluorescence | 0.01 µM | Protease | HIV-1 | inhibition |  | 44%
CC1(C)OC(=O)/C(=C/C(=O)c2cn(Cc3ccc(F)cc3)c3ccc(Br)cc23)O1 | strand transfer / fluorescence |  | Integrase | HIV-1 | fold resistance | Y143R | 1
CC(C)[C@H](NC(=O)OCc1ccccc1)C(=O)N[C@@H](Cc1ccccc1)[C@H](O)[C@H](Cc1ccccc1)NC(=O)[C@@H](NC(=O)OCc1ccccn1)C(C)C | fluorescence | 0.005 µM | Protease | HIV-1 | inhibition |  | 63%
CC(C)[C@H](NC(=O)c1ccc2ccccc2n1)C(=O)N[C@@H](Cc1ccccc1)[C@H](O)CN1CC[C@@H](SCc2cccnc2)C[C@H]1C(=O)NC(C)(C)C | fluorescence |  | Protease | HIV | Ki | PR-V32I A71V | 0.000045 µM
CC(C)CC(NC(=O)[C@@H](NC(=O)OCc1ccccc1)C(C)C)C(O)C(F)(F)C(NC(=O)[C@@H](NC(=O)OCc1ccccc1)C(C)C)C(C)C | fluorescence |  | Protease | HIV-1 | IC50 |  | >0.005 µM
O=C(O)C(C(=O)O)c1c[nH]c2ccc([N+](=O)[O-])cc12 | strand transfer / fluorescence |  | Integrase | HIV-1 | fold resistance | G140S | 0.8